Tested on: indole oxidase
Experiment: Cell-free oxygen uptake in WW2 indole-induced cell extract
Type: biochemical, Pseudomonas putida
Conditions: colour of the reaction, substrate 0.3 mM, 1 mM NADH

SMILES | Color
Clc1ccc2[nH]ccc2c1 [5-Cl-Indole] | blue
Clc1ccc2cc[nH]c2c1 [6-Cl-Indole] | pink

— patent publication US6642031B2, “Microorganisms with ability to degrade indole and enzymes therefrom” (Genencor International, Inc., priority 1995, dated 2003)
